Data as given in PubChem BioAssay AID504761 (Drosophila RNAi Screening Center, 2011)

Test: 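Fly genes whose silencing reduces dengue virus type 2 infection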 (primary screen)
Cell system: D.Mel-2 cells from Drosophila
Knock-down reagent: long dsRNA against Drosophila genes
Treatment: infection with dengue virus type 2; dose and infection time not stated
Measurement: 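Cells stained for dengue envelope protein and imaged; percent of infected cells per well on duplicate plates, ranked by infection, with stained nuclei counted for cell number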
Reading the numbers: infection score: higher = more virus-infected cells; cell count: higher = more cells in the well
Hit rule: 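Low infection ranks in the two replicates (chance level up to 0.065) followed by a retest with a 1.5-fold or larger significant decrease, p below 0.05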
Calls: active = confirmed: knock-down lowers infection; inactive = not picked or not confirmed
The deposit covers about 22,000 reagents; this is an unselected part of those that have a named target and a result. In the full data, 116 (0.52%) are marked active. 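Calls depend on retest data that are not deposited; infection was ranked per plate without normalising between plates; the unit of the infection score is not given.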 Raw values vary from plate to plate and are shown uncorrected. A number with no mark means an inactive call. Further read-outs or replicates are left out here. The record does not give: the amount of reagent, the time to read-out.

After knock-down of CG33290 [DRSC11493], the record shows infection score, replicate 1 = 3.48; cell count, replicate 1 = 6033.
CG33290 [DRSC27148] scored infection score, replicate 1 = 9.77; cell count, replicate 1 = 6276.
mip130 (Myb-interacting protein 130) [DRSC18575] showed infection score, replicate 1 = 6.97; cell count, replicate 1 = 2957.
Against mip130 (Myb-interacting protein 130) [DRSC26990] the deposit lists infection score, replicate 1 = 9.5; cell count, replicate 1 = 5687.
Vha100-1 (Vacuolar H[+] ATPase 100kD subunit 1) [DRSC14148] gave infection score, replicate 1 = 1.83; cell count, replicate 1 = 5472.
After knock-down of Vha100-1 (Vacuolar H[+] ATPase 100kD subunit 1) [DRSC26617] the results were infection score, replicate 1 = 2.37; cell count, replicate 1 = 5792.
Spps (Sp1-like factor for pairing sensitive-silencing) [DRSC23206] showed infection score, replicate 1 = 3.97; cell count, replicate 1 = 7073.
For CG10628 [DRSC02080], the entry reads infection score, replicate 1 = 25.5; cell count, replicate 1 = 4580.
Against CG6652 [DRSC10686] the deposit lists infection score, replicate 1 = 1.22; cell count, replicate 1 = 7116.
After knock-down of CG6652 [DRSC28835], the screen gave infection score, replicate 1 = 12.9; cell count, replicate 1 = 5453.
With knock-down of CG3355 [DRSC00598], the record shows infection score, replicate 1 = 2.76; cell count, replicate 1 = 6482.
Silencing of Pxn (Peroxidasin) [DRSC08685] resulted in: infection score, replicate 1 = 3.43; cell count, replicate 1 = 6359.
Against Pxn (Peroxidasin) [DRSC27895], the values are infection score, replicate 1 = 19.1; cell count, replicate 1 = 6592.
